Measurements from ChEMBL document CHEMBL5131509, “Design, synthesis and biological evaluations of niclosamide analogues against SARS-CoV-2” (Eur J Med Chem, 2022).

Tests used:
[1] = Stability of compound in human plasma at 100 uM by HPLC analysis; type: ADME, cell-free; conditions: read-out: Stability
[2] = Metabolic stability of the compound in human liver microsomes S9 fraction preincubated with NADPH for 10 mins followed by compound addition at 50 uM measured upto 360 mins by HPLC analysis; type: ADME, subcellular; conditions: read-out: Stability

## O=C(Nc1ccc([N+](=O)[O-])cc1Cl)c1cc(Cl)ccc1O [NICLOSAMIDE]
[1]
  remaining at 100 µM: 40%
[2]
  remaining at 6 h, 50 µM: 27%
